Pooled drug test results. Numbers come from NIAID ChemDB, via PubChem.

All rows: toxicity to cultured cells; cell line: MT-4; endpoint: CC50

Neighbouring rows are from separate reports.

CCOC(=O)c1c(Br)c(-c2ccccc2)n(COCCOC(C)=O)c1-c1ccccc1 ; method: MTT ; result: 47 µM
C=C1CN(S(=O)(=O)c2ccc(COCCCC)cc2)CCCN(Cc2ccccc2)CCCN(S(=O)(=O)c2ccc(COCCCC)cc2)C1 ; method: trypan blue / propidium iodide ; result: 30.5 µM
O=C(COc1ccc2ccccc2c1)NCc1n[nH]c(=S)n1-c1ccc(Br)cc1 ; method: MTT ; result: 10.2 µg/mL
C=Cc1cc(N(CC)CC)nc(S(=O)(=O)Cc2ccc(OC)cc2)n1 ; method: MTT ; result: 42.9 µM
CCc1nc([N+](=O)[O-])c(N2CCN(C(=O)c3ccc(Cl)cc3Cl)CC2)n1Cc1ccccc1 ; result: 17.73 µg/mL
COC(=O)c1ccc(NC(=O)COc2nsnc2-c2cccc3ccccc23)c(Br)c1 ; method: MTT ; result: >100 µM
O=c1[nH]c(=S)[nH]c2nc(-c3ccccn3)c(-c3ccccn3)nc12 ; method: MTT / absorbance ; result: 79.23 µM
CCc1c(Cc2ccccc2C)n(COCC#Cc2ccc(NC(=O)C(F)(F)F)cc2)c(=O)[nH]c1=O ; method: MTT ; result: 45 µM
CC(C)(C)NC(=O)c1ccccc1NCC(O)Cn1cc(C(=O)NC(C)(C)C)c(-c2ccccc2)c1 ; result: 101 µM
Clc1ccc(Cn2cc(COc3nsnc3-c3cccc4ccccc34)nn2)cc1 ; method: MTT ; result: >115 µM
Cc1cn([C@@H]2O[C@H](CO)[C@@H](F)[C@H]2O)c(=O)[nH]c1=O ; result: >500 µM
CCOC(=O)N(Cc1ccccc1)CC(O)C(Sc1ccccc1)N(Cc1ccccc1)C(=O)OCC ; result: 50 µM
O=C(COc1nsnc1-c1cccc2ccccc12)Nc1ccccc1F ; method: MTT ; result: >126 µM
CC(=O)OCCOCn1c(-c2ccccc2)cc([N+](=O)[O-])c1-c1ccccc1 ; method: MTT ; result: 37 µM
CN[C@@H]1[C@H](O[C@H]2[C@H](O[C@H]3[C@H](O)[C@@H](O)[C@H](N=C(N)N)[C@@H](O)[C@@H]3N=C(N)N)O[C@@H](C)[C@]2(O)C=O)O[C@@H](CO)[C@H](O)[C@H]1O ; result: >200 µM
C=C1CN(S(=O)(=O)c2ccc(C)cc2)CCCN(C(C)CC)CCCN(S(=O)(=O)c2ccc(C)cc2)C1 ; method: trypan blue / propidium iodide ; result: 42.6 µM
CCOC(=O)c1c([N+](=O)[O-])c(-c2ccccc2)n(COCCO)c1C ; method: MTT ; result: >300 µM
Cc1nc(CCCCCCC(=O)c2ccccc2)n2nc(Cl)ccc12 ; result: >10 µM
CCc1c(Cc2ccccc2C)n(COCC#Cc2cccc3ccccc23)c(=O)[nH]c1=O ; method: MTT ; result: 34 µM
C=Cc1nc(S(C)(=O)=O)nc(N(C)C)c1I ; method: MTT ; result: 22.9 µM
O=[N+]([O-])c1c(-c2ccccc2)c(-c2ccccc2)n(COCCO)c1-c1ccccc1 ; method: MTT ; result: 43 µM
Cc1nc(CCCCCCC(=O)c2ccccc2)n2nc(NCCCCCCCCCCN)ccc12 ; result: >10 µM
O=C(O)c1c([N+](=O)[O-])c(-c2ccccc2)n(COCCO)c1-c1ccccc1 ; method: MTT ; result: >300 µM
O=c1[nH]c(=S)c2nc(-c3ccccn3)c(-c3ccccn3)nc2[nH]1 ; method: MTT / absorbance ; result: 112 µM
C=C1CN(S(=O)(=O)c2ccc(Br)cc2)CCCN(Cc2ccccc2)CCCN(S(=O)(=O)c2ccc(Br)cc2)C1 ; method: trypan blue / propidium iodide ; result: 47.7 µM
CC(C)[C@H](NC(=O)OC(C)(C)C)C(=O)NCC(O)C(NC(=O)[C@@H](NC(=O)OC(C)(C)C)C(C)C)Sc1ccccc1 ; result: 50 µM
CC(=O)OCCOCn1c(-c2ccccc2)c(N)c(C#N)c1-c1ccccc1 ; method: MTT ; result: >300 µM
C=C1CN(S(=O)(=O)c2ccc(C)cc2)CCCN(CC(C)CC)CCCN(S(=O)(=O)c2ccc(C)cc2)C1 ; method: trypan blue / propidium iodide ; result: 34.5 µM
CCOC(=O)c1cn(CC(O)CNc2ccccc2C)cc1-c1ccccc1 ; result: 33 µM
CCc1nc([N+](=O)[O-])c(N2CCN(C(=O)CS(=O)(=O)c3cccc4ccccc34)CC2)n1Cc1ccccc1 ; result: 30.23 µg/mL
CCCOC(=O)[C@H](Cc1ccccc1)NP(=O)(CO[C@H]1CO[C@@H](n2cnc3c(=O)[nH]cnc32)C1)N[C@@H](Cc1ccccc1)C(=O)OCCC ; method: MTT / absorbance ; result: 95.1 µM
O=c1ncc2nc(-c3ccccn3)c(-c3ccccn3)nc2[nH]1 ; method: MTT / absorbance ; result: 82.3 µM
[O-][n+]1nc2ccnn2c2cc(Cl)ccc21 ; result: >200 µM
CCc1c(C(C)c2c(F)cccc2F)nc(SC/C=C/c2ccc(OC)cc2)[nH]c1=O ; method: MTT ; result: 5.54 µM
O=C(Cc1ccc2c(c1)OC(F)(F)O2)NCCCCN1CCCC2=C[C@@H]3C[C@@H](CN4CCCC[C@H]34)[C@@H]21 ; method: luminescence ; result: >20 µM
Cc1nc(CCCCCCC(=O)c2ccccc2)n2nc(NCCCCCCNCc3cn([C@H]4C=C[C@@H](CO)O4)c(=O)[nH]c3=O)ccc12 ; result: 29 µM
Cc1ccnc2c1NC(=O)c1cccnc1N2C1CC1 ; method: MTT ; result: >15 µM
N#Cc1cnn2c1nnc1ccc(Cl)cc12 ; result: 16.7 µM
Cc1nc(CCCCCCC(=O)c2ccccc2)n2nc(NCCCCCCN)ccc12 ; result: >10 µM
CC(C)NCC(O)CN1C(=O)C2C3CCC(C(=O)C3)C2C1=O ; method: MTT ; result: >100 µM
CCc1c(C(C)c2c(F)cccc2F)nc(SC/C=C/c2ccc(C#N)cc2)[nH]c1=O ; method: MTT ; result: 27.23 µM
CC(C)[C@H](NC(=O)OC(C)(C)C)C(=O)N(Cc1ccccc1)CC(O)C(Sc1ccccc1)N(Cc1ccccc1)C(=O)[C@@H](NC(=O)OC(C)(C)C)C(C)C ; result: 50 µM
CCc1c(Cc2cc(C)cc(C)c2)n(COCC#CC#CCO)c(=O)[nH]c1=O ; method: MTT ; result: 40 µM
CCc1nc([N+](=O)[O-])c(N2CCN(C(=O)c3ccc(F)cc3)CC2)n1Cc1ccccc1 ; result: 64.53 µg/mL
CCOC(=O)c1cn(CC(O)CNc2ccc(C)cc2)cc1-c1ccccc1 ; result: >200 µM
NC(=O)CC[C@H](NC(=O)COc1ccccc1NC(=O)[C@@H](N)Cc1ccc(O)cc1)C(=O)N[C@@H](Cc1c[nH]c2ccccc12)C(=O)N[C@@H](CC(=O)O)C(=O)N[C@@H](Cc1ccccc1)C(=O)NCC(=O)O ; result: >1000 µg/mL
Fc1ccccc1Cn1cc(COc2nsnc2-c2cccc3ccccc23)nn1 ; method: MTT ; result: ≥79 µM
Nc1nc(=S)c2nc(-c3ccccn3)c(-c3ccccn3)nc2[nH]1 ; method: MTT / absorbance ; result: 47.64 µM
Nc1ncnc2c1ncn2[C@H]1C[C@@H](OCP(=O)(O)O)CO1 ; method: MTT / absorbance ; result: ≥315 µM
O=C(NCCCCCN1CCCC2=C[C@@H]3C[C@@H](CN4CCCC[C@H]34)[C@@H]21)c1c(F)cc(Br)cc1F ; method: luminescence ; result: >20 µM
O=C1CC2CCC1C1C(=O)N(CC(O)CN3CCN(c4ccccn4)CC3)C(=O)C21 ; method: MTT ; result: >100 µM
Fc1cccc(Cn2cc(COc3nsnc3-c3cccc4ccccc34)nn2)c1 ; method: MTT ; result: 67 µM
O=C(NCCCCCN1CCCC2=C[C@@H]3C[C@@H](CN4CCCC[C@H]34)[C@@H]21)c1ccc(OC(F)(F)F)cc1 ; method: luminescence ; result: 12.87 µM
COC(=O)c1cnn2c1n[n+]([O-])c1ccccc12 ; result: 98 µM
CCc1c(Cc2cc(C)cc(C)c2)n(COCC#Cc2ccc(O[Si](c3ccccc3)(c3ccccc3)C(C)(C)C)cc2)c(=O)[nH]c1=O ; method: MTT ; result: >100 µM
NC1N=CNc2nc(-c3ccccn3)c(-c3ccccn3)nc21 ; method: MTT / absorbance ; result: 12.1 µM
CC(C)[C@H](NC(=O)c1ccc2ccccc2n1)C(=O)N(Cc1ccccc1)CC(O)C(Sc1ccccc1)N(Cc1ccccc1)C(=O)[C@@H](NC(=O)c1ccc2ccccc2n1)C(C)C ; result: 50 µM
O=c1ccn([C@@H]2O[C@H](CO)[C@@H](F)[C@H]2O)c(=O)[nH]1 ; result: 38 µM
Nc1nc2nc(-c3ccccn3)c(-c3ccccn3)nc2c(=O)[nH]1 ; method: MTT / absorbance ; result: 105.7 µM
O=[N+]([O-])c1cnn2c1n[n+]([O-])c1cc(Cl)ccc12 ; result: 1.4 µM
O=C1CN=C(COc2ccc3ccccc3c2)NN1 ; method: MTT ; result: 5.2 µg/mL
Cc1nc(CCCCCCC(=O)c2ccccc2)n2nc(NCCCCCCCCCCNCc3cn([C@H]4C=C[C@@H](CO)O4)c(=O)[nH]c3=O)ccc12 ; result: 24.5 µM
O=C(NCCCCN1CCCC2=C[C@@H]3C[C@@H](CN4CCCC[C@H]34)[C@@H]21)C1(c2ccc(OC(F)(F)F)cc2)CC1 ; method: luminescence ; result: >20 µM
Nc1c(-c2ccccc2)c(-c2ccccc2)n(COCCO)c1-c1ccccc1 ; method: MTT ; result: 42 µM
CCc1nc([N+](=O)[O-])c(N2CCN(C(=O)CSC)CC2)n1Cc1ccccc1.COc1ccccc1 ; result: 7.77 µg/mL
COC(=O)[C@H]1[C@@H]2C[C@@H](O[C@@H]3O[C@H](C)[C@@H](O)[C@H](N)[C@@H]3O)/C=C/C=C/C=C/C=C/C=C/C=C/C=C/[C@H](C)[C@@H](O)[C@H](C)[C@H](C)OC(=O)C[C@H](O)C[C@H](O)[C@@H](O)CC[C@H](O)C[C@H](O)C[C@](O)(C[C@@H]1O)O2 ; result: >20 µg/mL
CC(=O)OCCOCn1c(-c2ccccc2)c(C#N)c([N+](=O)[O-])c1-c1ccccc1 ; method: MTT ; result: >300 µM
CCOC(=O)c1cn(CC(O)CNc2cccc(N)c2)cc1-c1ccccc1 ; result: 4.3 µM
Cc1cn([C@H]2C[C@@H](OCP(=O)(O)O)CO2)c(=O)nc1N ; method: MTT / absorbance ; result: >410 µM
O=c1[nH]c(=O)n([C@H]2C=C[C@@H](CO)O2)cc1CO ; result: 27.5 µM
CCCOC(=O)[C@H](Cc1ccccc1)NP(=O)(CO[C@H]1CO[C@@H](n2cc(F)c(=O)[nH]c2=O)C1)N[C@@H](Cc1ccccc1)C(=O)OCCC ; method: MTT / absorbance ; result: >64 µM
C=C1CN(S(=O)(=O)c2ccc(C)cc2)CCCN(CC2CC=CCC2)CCCN(S(=O)(=O)c2ccc(C)cc2)C1 ; method: trypan blue / propidium iodide ; result: 32.7 µM
CCc1c(Cc2cc(C)cc(C)c2)n(COCC#Cc2ccc(CO)cc2)c(=O)[nH]c1=O ; method: MTT ; result: 42 µM
Cc1ccc(S(=O)(=O)N2CCCN(Cc3ccccc3)CCCN(S(=O)(=O)c3ccc(C)cc3)CC(=O)C2)cc1 ; method: trypan blue / propidium iodide ; result: 47.2 µM
O=C1CC2CCC1C1C(=O)N(CCCN3CCN(c4ccccc4)CC3)C(=O)C21 ; method: MTT ; result: >100 µM
NC(=O)OCc1ncc(Sc2cc(Cl)cc(Cl)c2)n1Cc1ccncc1 ; result: 11 µg/mL
O=C(COc1ccc2ccccc2c1)NCC(=O)NNC(=S)Nc1ccc(Br)cc1 ; method: MTT ; result: 31.2 µg/mL
O=C(NCCN1CCCC2=C[C@@H]3C[C@@H](CN4CCCC[C@H]34)[C@@H]21)c1cccc(F)c1 ; method: luminescence ; result: >80 µM
Cc1ccc(NC(=O)COc2nsnc2-c2cccc3ccccc23)c(Br)c1 ; method: MTT ; result: 14 µM
O=C(COc1ccc2ccccc2c1)NCc1nnc(Nc2ccccc2)s1 ; method: MTT ; result: 0.96 µg/mL

Repeating the first 7 entries:

structure,method,result
CCOC(=O)c1c(Br)c(-c2ccccc2)n(COCCOC(C)=O)c1-c1ccccc1,MTT,47 µM
C=C1CN(S(=O)(=O)c2ccc(COCCCC)cc2)CCCN(Cc2ccccc2)CCCN(S(=O)(=O)c2ccc(COCCCC)cc2)C1,trypan blue / propidium iodide,30.5 µM
O=C(COc1ccc2ccccc2c1)NCc1n[nH]c(=S)n1-c1ccc(Br)cc1,MTT,10.2 µg/mL
C=Cc1cc(N(CC)CC)nc(S(=O)(=O)Cc2ccc(OC)cc2)n1,MTT,42.9 µM
CCc1nc([N+](=O)[O-])c(N2CCN(C(=O)c3ccc(Cl)cc3Cl)CC2)n1Cc1ccccc1,,17.73 µg/mL
COC(=O)c1ccc(NC(=O)COc2nsnc2-c2cccc3ccccc23)c(Br)c1,MTT,>100 µM
O=c1[nH]c(=S)[nH]c2nc(-c3ccccn3)c(-c3ccccn3)nc12,MTT / absorbance,79.23 µM

Blank or dashed fields: not listed here. CCn is the concentration with n% toxicity to the cells.